The series addresses MtrA~P phosphorylated via MtrB' M517L (UniProt P9WGM7). Description: EMSA. As to conditions: recombinant protein; protein details: 6xHis (pProEx-HT); label: 32P 5' end label; probe letters rebuilt from the primers and the genome.

Construct, isoform or probe ends are uncertain for at least one entry.

On to “TTGCGCCCTTTCACCTCACGATGAGTTCGATCCCGTGGCTAGCGCCCCGCTAGCGTGGGGACTGCCAACGACGAATGCCCATGACGCGTGACCCGCCACGACGGCCGCAACAGCAGTCGAACAACAACCGTAGAGCTTCTCACGTCAACTTGAAAGTTCATCATTGACCTCTGACCCACCGCGACGAGCCAGTTATGCGGGTGGTATCCAGCGAACGATCCCCAGCGCTGTCTTTCCAAGAACAAACGACGAAGAAATCTCGGTAACAGTATTAGAGGGTGTGCAGTTTGGGGACAGTCTGGTCTTGGTGCAGGTCGACGTCGGTCGGAGTTGTGGATGACGGTGGCGATGACTGTGGGGTGTGTGTTGGGTCGGTGGGGATGAGGCGTGGGTTGTGAACGGAACCGCCGGGACTGTATGAGTCTGTGCGCGGTTTGTGCACAGCGACACTCACAGCCAATCTCTGTGACTGGTGTGACCTGGGAGAGAGAAGTTTTTTTAAGAACGTTGTCGGAAGAACACGCCGTGCTAGCGCTTGGAGCGCTGACGGATG (double strand) [oriC 526 bp]”, for which the binding result was “binds”.

These data come from publication PMC8445491.
